A mixed list of measured activities; the numbers were collected in NIAID ChemDB.

All rows: enzyme or target tests; organism: HIV-1; protein: Protease; read-out: IC50

Conditions beyond the fields shown may differ between rows.

structure,mutations,value
CC(=O)Nc1ccc(S(=O)(=O)N(CC(C)C)C[C@@H](O)[C@H](CCc2ccccc2)NC(=O)CN2C(=O)c3ccccc3S2(=O)=O)cc1,-,0.02 µM
CC(C)(C)NC(=O)[C@H]1N(C(=O)[C@@H](O)[C@H](Cc2ccccc2)NC(=O)CC(C)(C)C(=O)O)CSC1(C)C,-,<5 µM
CC[C@@H](C)[C@H](NC(=O)[C@@H]1CCCN1C(=O)[C@@H](O)[C@H](CC1CCCCC1)NC(=O)[C@H](CC(N)=O)NC(=O)CCc1ccccc1)C(=O)N[C@H](C(N)=O)C(C)C,-,1.999 µM
CON[C@H](C(=O)NC(=O)[C@H]1N(C(=O)[C@@H](O)[C@H](Cc2ccccc2)NC(=O)[C@@H](NC(=O)[C@H](Cc2ccccc2)NC(C)=O)C(C)C)CSC1(C)C)C(C)C,PR-V82F,0.016 µM
CC1(C)CC[C@]2(C(=O)O)CC[C@]3(C)C(=CCC4[C@@]5(C)CC[C@H](OC(=O)CC(=O)O)C(C)(C)C5CC[C@]43C)C2C1,-,8 µM
CC(C)C[C@H](NC(=O)[C@@H](NC(=O)CCCCCCCCCCCCCCC(=O)N[C@@H](CC(N)=O)C(=O)N[C@@H](Cc1ccccc1)C(=O)O)C(C)O)C(=O)N[C@@H](Cc1ccc(N)cc1)C(N)=O,-,1.64 µM
CC(C)(CC(=O)O)CC(=O)N[C@@H](Cc1ccccc1)[C@H](O)C(=O)N1CSC[C@H]1C(=O)NC(C)(C)C,-,~5 µM
CCC(C)C(CO)NC(=O)[C@@H]1CSCN1C(=O)[C@@H](O)[C@H](Cc1ccccc1)NC(=O)[C@H](CS(C)(=O)=O)NC(=O)COc1cccc2ccccc12,-,<0.05 µM
Cc1cccc(C)c1OCC(=O)N[C@@H](Cc1ccccc1)[C@@H](O)C[C@H](Cc1ccccc1)NC(=O)[C@H](C(C)C)N1CCOC1=O,-,<0.0005 µM
CC(C)[C@H](NC(=O)[C@@H](NC(=O)C(Cc1ccccc1)NC(=O)[C@@H](O)[C@H](Cc1ccccc1)NC(=O)[C@@H](N[C@H](C(=O)O)C(C)C)C(C)C)C(C)C)C(N)=O,-,2.6 µM
N[C@@H](Cc1c[nH]c2ccccc12)C(=O)O,-,>100 µM
Cc1cccc(C)c1OCC(=O)N[C@@H](Cc1ccccc1)[C@@H](O)C[C@H](Cc1ccccc1)NC(=O)[C@H](C(C)C)N1CCCC1=O,-,<0.0005 µM
CCOC(=O)c1cc2cc(Cl)ccc2n1CC(O)CNc1ccccc1C(=O)OC,-,72 µM
CC[C@H](C)[C@H](NC(=O)[C@@H]1CCCN1C(=O)[C@@H](O)[C@H](Cc1ccccc1)NC(=O)[C@H](CC(N)=O)NC(=O)CCc1ccccc1)C(=O)N[C@H](C(N)=O)C(C)C,-,0.468 µM
CC(C)(C)NC(=O)[C@@H]1CC2CCCCC2CN1C(=O)[C@@H](O)[C@H](Cc1ccccc1)NC(=O)[C@H](CS(C)(=O)=O)NC(=O)COc1cccc2ccccc12,-,>0.05 µM
CC1(C)CC[C@]2(C(=O)O)CC[C@]3(C)C(=CC[C@@H]4[C@@]5(C)CC[C@H](O)C(C)(C)[C@@H]5CC[C@]43C)[C@@H]2C1,-,8 µM
CC[C@@H](C)[C@H](NC(=O)[C@@H]1CCCN1C(=O)[C@@H](O)[C@H](CC1CCCCC1)NC(=O)[C@H](CC(N)=O)NC(=O)COc1cccc2ccccc12)C(=O)N[C@H](C(N)=O)C(C)C,-,<5 µM
COc1ccc(S(=O)(=O)N(CC(C)C)C[C@@H](O)[C@H](Cc2ccccc2)NC(=O)c2cc(C)ccc2C)cc1,-,0.007 µM
CC(=O)N[C@H](CS(=O)(=O)Cc1ccc(Cl)cc1)C(=O)N[C@@H](CCc1ccccc1)[C@H](O)C(=O)N1CSC(C)(C)[C@H]1C(=O)NCc1ccccc1C,-,0.00022 µM
Cc1ccccc1CNC(=O)[C@@H]1CSCN1C(=O)[C@@H](O)[C@H](Cc1ccccc1)NC(=O)C(C)C(C)C(=O)O,-,<5 µM
CCCCCCCC/C=C/CCCCCCCC(=O)OC1CC[C@@]2(C)C(=CCC3C4CCC([C@H](C)CC[C@H](CC)C(C)C)[C@@]4(C)CCC32)C1,-,>100 µM
CC(C)(NC(=O)[C@@H]1CCCN1C(=O)[C@@H](O)[C@H](Cc1ccccc1)NC(=O)[C@H](CC(N)=O)NC(=O)OCc1ccccc1)C(N)=O,-,<5 µM
O=C(N[C@@H](CCc1ccccc1)[C@@H](O)C[C@]1(Cc2ccccc2)NC=C([C@H]2c3ccccc3[C@H]3NC(=O)O[C@H]32)C1=O)O[C@H]1CCOC1,-,0.00044 µM
CC(C)C[C@H](NC(=O)[C@H](CC(N)=O)NC(=O)CCCCCCCCCCCCCCC(=O)N[C@@H](CC(N)=O)C(=O)N[C@@H](Cc1ccccc1)C(=O)O)C(=O)N[C@@H](Cc1ccccc1)C(N)=O,-,>5.5 µM
O=C1C(Cc2ccccc2)(Cc2ccccc2)[C@@H]2COC[C@H]2C1(Cc1ccccc1)Cc1ccccc1,-,70–100 µM
CCOC(=O)c1cn(CC(O)CSc2ccccc2C(=O)NC(C)(C)C)cc1-c1ccccc1,-,>200 µM
CC(C)[C@H](NC(=O)[C@H](C)NC(=O)c1cccnc1)C(=O)N[C@@H](Cc1ccccc1)C(O)C(O)[C@H](Cc1ccccc1)NC(=O)[C@@H](NC(=O)[C@H](C)NC(=O)c1cccnc1)C(C)C,-,0.011 µM
C=C(C)[C@@H]1CC[C@]2(C(=O)O)CC[C@]3(C)[C@H](CC[C@@H]4[C@@]5(C)CC[C@H](OC(=O)C(=O)O)C(C)(C)C5CC[C@]43C)[C@@H]12,-,7 µM
CSC[C@H](NC(=O)COc1cccc2ccccc12)C(=O)N[C@@H](Cc1ccccc1)[C@H](O)C(=O)N1CSC[C@H]1C(=O)NC(C)(C)C,-,<0.05 µM
CC(C)(C)NC(=O)c1ccccc1NCC(O)Cn1c(C(=O)NC(C)(C)C)cc2ccccc21,-,57 µM
CC(C)(C)NC(=O)[C@@H]1CSCN1C(=O)[C@@H](O)[C@H](Cc1ccccc1)NC(=O)[C@H](CS(C)(=O)=O)NC(=O)c1ccccc1-c1ccccc1,-,<5 µM
COc1ccc(S(=O)(=O)N(CC(C)C)C[C@@H](O)[C@H](Cc2ccccc2)NC(=O)OCc2cccnc2)cc1,-,0.009 µM
CC(C)[C@H](NC(=O)[C@H](C)NS(=O)(=O)c1ccc(Br)cc1)C(=O)N[C@@H](Cc1ccccc1)[C@@H](O)[C@H](O)[C@H](Cc1ccccc1)NC(=O)[C@@H](NC(=O)[C@H](C)NS(=O)(=O)c1ccc(Br)cc1)C(C)C,-,0.07 µM
COC(=O)c1ccccc1NCC(O)Cn1c(C(=O)NC(C)(C)C)cc2cc(Cl)ccc21,-,25 µM
CC(C)CCN(C[C@@H](O)[C@H](Cc1ccccc1)NC(=O)[C@@H](NC(=O)CN(C)C)C(C)(C)C)S(=O)(=O)c1ccccc1,-,0.002 µM
CC(C)[C@H](NC(=O)[C@H](C)NC(=O)Nc1ccc(C(F)(F)F)cc1)C(=O)N[C@@H](Cc1ccccc1)C(O)C(O)[C@H](Cc1ccccc1)NC(=O)[C@@H](NC(=O)[C@H](C)NC(=O)Nc1ccc(C(F)(F)F)cc1)C(C)C,-,2 µM
CCOC(=O)c1cn(CC(O)CNc2ccccc2C)cc1-c1ccccc1,-,>200 µM
C=CCC1(CC=C)C(=O)C(CC=C)(CC=C)[C@@H]2COC[C@H]21,-,70–100 µM
CC(C)[C@H](NC(=O)[C@H](C)NC(=O)Oc1ccccc1)C(=O)N[C@@H](Cc1ccccc1)[C@@H](O)[C@H](O)[C@H](Cc1ccccc1)NC(=O)Oc1ccccc1,-,0.1 µM
CC(C)(C)NC(=O)[C@@H]1CCCN1C(=O)[C@@H](O)[C@H](Cc1ccccc1)NC(=O)[C@H](CC(N)=O)NC(=O)COC(c1cccc(Cl)c1)c1cccc(Cl)c1,-,<0.05 µM
CSCC[C@H](NC(=O)[C@H](CC(C)C)NC(=O)[C@@H](NC(=O)CCCCCCCCCCCCCCC(=O)N[C@@H](CC(N)=O)C(=O)N[C@@H](Cc1ccccc1)C(=O)O)C(C)O)C(=O)O,-,>5.5 µM
CC(=O)Nc1ccc(S(=O)(=O)N(CC(C)C)C[C@@H](O)[C@H](CCc2ccccc2)NC(=O)Cc2c[nH]c3ccccc23)cc1,-,0.008 µM
Cc1cccc(C)c1OCC(=O)N[C@@H](Cc1ccccc1)[C@@H](O)C[C@H](Cc1ccccc1)NC(=O)[C@H](C(C)C)N1CCCOC1=O,-,<0.0005 µM
CON[C@H](C(=O)NC(=O)[C@H]1N(C(=O)[C@@H](O)[C@H](Cc2ccccc2)NC(=O)[C@@H](NC(=O)[C@H](Cc2c[nH]c3ccccc23)NC(=O)Oc2ccccc2)C(C)C)CSC1(C)C)C(C)C,-,0.025 µM
O=c1c(O[C@@H]2O[C@H](CO)[C@H](O)[C@H](O)[C@H]2O)c(-c2ccc(O)c(O)c2)oc2cc(O)cc(O)c12,-,>100 µM
CC(C)CCN(C[C@@H](O)[C@H](Cc1ccccc1)NC(=O)OCc1ccccc1)S(=O)(=O)Cc1ccccc1,-,>10 µM
C=C(C)C1CC[C@]2(C(=O)O)CC[C@]3(C)[C@H](CC[C@@H]4[C@@]5(C)CC[C@H](OC(=O)CCC(=O)O)C(C)(C)[C@@H]5CC[C@]43C)[C@@H]12,-,6 µM
CC[C@@H](C)[C@H](NC(=O)[C@@H]1CCCN1C(=O)[C@@H](O)[C@H](CC1CCCCC1)NC(=O)[C@H](CC(N)=O)NC(=O)c1cnccn1)C(=O)N[C@H](C(N)=O)C(C)C,-,<5 µM
Cc1cn([C@@H]2C[C@@H](N=[N+]=[N-])[C@H](COC(=O)C(C)(C)CC(=O)N[C@@H](Cc3ccccc3)[C@H](O)C(=O)N3CSC[C@H]3C(=O)NC(C)(C)C)O2)c(=O)[nH]c1=O,-,>5 µM
OC1C(C/C=C/c2ccccc2)(C/C=C/c2ccccc2)[C@@H]2COC[C@H]2C1(C/C=C/c1ccccc1)C/C=C/c1ccccc1,-,70–100 µM
Cc1cn([C@H]2C[C@H](N=[N+]=[N-])[C@@H](COC(=O)CCC(=O)N[C@@H](Cc3ccccc3)[C@H](O)C(=O)N3CSC[C@H]3C(=O)NC(C)(C)C)O2)c(=O)[nH]c1=O,-,>5 µM
CC(C)C[C@H](NC(=O)[C@@H](NC(=O)CCCCCCCCCCCCCCC(=O)N[C@@H](CC(N)=O)C(=O)N[C@@H](Cc1ccccc1)C(=O)O)C(C)O)C(=O)N[C@@H](Cc1ccc(Br)cc1)C(N)=O,-,3.6 µM

For reference, 8 entries again:

structure	mutations	value
CSCC[C@H](NC(=O)[C@H](CC(C)C)NC(=O)[C@@H](NC(=O)CCCCCCCCCCCCCCC(=O)N[C@@H](CC(N)=O)C(=O)N[C@@H](Cc1ccccc1)C(=O)O)C(C)O)C(=O)O	-	>5.5 µM
CC(C)(C)NC(=O)[C@@H]1CCCN1C(=O)[C@@H](O)[C@H](Cc1ccccc1)NC(=O)[C@H](CC(N)=O)NC(=O)COC(c1cccc(Cl)c1)c1cccc(Cl)c1	-	<0.05 µM
C=C(C)C1CC[C@]2(C(=O)O)CC[C@]3(C)[C@H](CC[C@@H]4[C@@]5(C)CC[C@H](OC(=O)CCC(=O)O)C(C)(C)[C@@H]5CC[C@]43C)[C@@H]12	-	6 µM
O=c1c(O[C@@H]2O[C@H](CO)[C@H](O)[C@H](O)[C@H]2O)c(-c2ccc(O)c(O)c2)oc2cc(O)cc(O)c12	-	>100 µM
CC(=O)N[C@H](CS(=O)(=O)Cc1ccc(Cl)cc1)C(=O)N[C@@H](CCc1ccccc1)[C@H](O)C(=O)N1CSC(C)(C)[C@H]1C(=O)NCc1ccccc1C	-	0.00022 µM
CC(C)C[C@H](NC(=O)[C@H](CC(N)=O)NC(=O)CCCCCCCCCCCCCCC(=O)N[C@@H](CC(N)=O)C(=O)N[C@@H](Cc1ccccc1)C(=O)O)C(=O)N[C@@H](Cc1ccccc1)C(N)=O	-	>5.5 µM
CC[C@@H](C)[C@H](NC(=O)[C@@H]1CCCN1C(=O)[C@@H](O)[C@H](CC1CCCCC1)NC(=O)[C@H](CC(N)=O)NC(=O)c1cnccn1)C(=O)N[C@H](C(N)=O)C(C)C	-	<5 µM
CC(C)(NC(=O)[C@@H]1CCCN1C(=O)[C@@H](O)[C@H](Cc1ccccc1)NC(=O)[C@H](CC(N)=O)NC(=O)OCc1ccccc1)C(N)=O	-	<5 µM

a–b is a range or a potency band. ICn: concentration for n% inhibition. Blank or dashed fields: not listed here.